From patent publication US20230256111A1, “C[…] ADC OR AN AOC COMPRISING A VHH, AND A SAPONIN OR A LIGAND-SAPONIN CONJUGATE” (SAPREME TECHNOLOGIES B.V., priority 2020, published 2023)

Tested on: human A431 tumor cells (xenograft)
Test: A431 xenograft tumor model in nude mice, tumor volume
Assay type: in vivo, mouse
Conditions: Example 13, second experiment: 25 mg/kg cetuximab-(Cys-L-SO1861)^4 i.p. + 0.03 mg/kg toxin conjugate i.v., day 9, 14, then weekly (FIG. 21)
Description: Female Balb/c nude mice were injected subcutaneously with a suspension of human A431 tumor cells. Under the skin of the mice, a human epidermal carcinoma developed in the xenograft animal tumor model. After injection of the tumor cells, the xenograft tumor was allowed to develop to a size of approximately 170-180 mm^3. The A431 tumor cells have the following characteristics: high EGFR expressors, medium 0071 expressors, low HER2 expressors.
In Table 6A, the results of the treatment of control mice and tumor-bearing mice are presented. Tumor-bearing mice were treated with the indicated antibodies directed to either human Her2/neu, human EGFR, or human CD71, which are cell-surface receptors on the xenograft tumor. Cetuximab was covalently conjugated with saponin SO1861. […] The dose of the ADCs was sub-optimal in the tumor model. That is to say, from previous experiments, it was established at which sub-optimal dose of the ADCs no tumor-regression or arrest of tumor growth would be observable.
The 2 target 2-components system (2T2C) is the combination treatment of mAb1-SO1861 and mAb2-protein toxin, (FIG. 1B-D).

## Cetuximab: monoclonal antibody recognizing and binding human EGFR
  tumor response: only tumor growth inhibition, but no regression
